Anti-infective test results gathered from many reports (values: NIAID ChemDB through PubChem).

Shared fields: tests in culture; species: Varicella zoster virus; method: plaque count; endpoint: EC50

ECn is the concentration giving n% inhibition of infection, replication or growth.

compound | cells | strain | value
O=c1[nH]c(=O)n([C@H]2C[C@H](O)[C@@H](CO)S2)cc1/C=C/Br | HEL | YS | 0.006 µM
CCCCCC(=O)O[C@H]1C[C@H](n2cc(/C=C/Br)c(=O)[nH]c2=O)O[C@@H]1COP1(=O)OCc2cccc(C)c2O1 | HELF | OKA | 0.067 µg/mL
C[C@@H]1CC[C@H]2[C@@H](C)C(=O)O[C@@H]3OC4(C)CC[C@@H]1[C@]32OO4 | HEL | YS | >50 µg/mL
Nc1ncnc2c1ncn2C[C@H]1COP(=O)(O)CO1 | HEL | OKA (TK+) | 0.16 µM
COC(=O)[C@H](C)NP(=O)(OC[C@@H]1C[C@]12C[C@@H]2n1cnc2c(N)ncnc21)Oc1ccccc1 | HFF | - | >8.5 µM
O=c1[nH]c(=S)n([C@@H]2O[C@H](CO)[C@@H](O)[C@@H]2O)cc1I | MRC-5 | HOSEN | 36.3 µM
Nc1nc2c(ncn2[C@H]2C[C@@]23C[C@@H]3CO)c(=O)[nH]1 | HFF | - | >399 µM
Nc1ncnc2c1ncn2[C@@H]1O[C@H](CO)[C@@H](O)[C@@H]1O | HEL | YS/R (TK-) | 14.2 µM
Cc1cn([C@H]2C[C@H](O)[C@@H](CO)S2)c(=O)[nH]c1=O | HEL | OKA YS | 0.09 µM
CCC(C)C(N)C(=O)O[C@H]1C[C@H](n2cc(/C=C/Br)c(=O)[nH]c2=O)O[C@@H]1COP1(=O)OCc2cccc(C)c2O1 | HELF | OKA | 0.026 µg/mL
Cc1cn([C@@H]2O[C@H](CO)C[C@@H]2O)c(=O)[nH]c1=O | HEL | - | 32 µM
Nc1nc2c(ncn2[C@H]2C[C@]23C[C@@H]3CO)c(=O)[nH]1 | HFF | - | >399 µM
O=c1[nH]c(=O)n([C@H]2C[C@H](O)[C@@H](CO)O2)cc1-c1ccc(Cl)s1 | HEL | YS/R (TK-) | >58 µM
COC(=O)[C@H](C)NP(=O)(OC[C@@H]1C[C@]12C[C@@H]2n1cnc2c(N)ncnc21)Oc1ccccc1 | HFF | - | >8.5 µM
C[C@H](N)C(=O)O[C@H]1C[C@H](n2cc(/C=C/Br)c(=O)[nH]c2=O)O[C@@H]1COP1(=O)OCc2ccccc2O1 | HELF | OKA | 0.03 µg/mL
Nc1nc2c(ncn2OC(/C=C/P(=O)(O)O)CO)c(=O)[nH]1 | MRC-5 | ELLEN | >300 µM
Nc1nc2c(ncn2[C@@H]2C=C[C@H](CO)CC2)c(=O)[nH]1 | HEL | YS (TK+) | 0.5 µg/mL
O=c1[nH]c(=O)n([C@@H]2O[C@H](CO)[C@@H](O)[C@@H]2O)cc1/C=C/Br | HEL | - | 0.0023 µM
O=c1[nH]c(=O)n([C@H]2C[C@H](O)[C@@H](CO)S2)cc1C1CC1 | HEL | OKA YS | 0.09 µM
CC#Cc1cn([C@@H]2O[C@H](CO)[C@@H](O)[C@@H]2O)c(=O)[nH]c1=O | MRC-5 | G-31 | 2 µM
O=c1[nH]c(=O)n([C@H]2C[C@H](O)[C@@H](CO)S2)cc1C1CCC1 | HEL | OKA YS | 0.38 µM
Nc1nc2c(ncn2[C@H]2C=C[C@@H](CO)CC2)c(=O)[nH]1 | HEL | YS/R (TK-) | 6.8 µg/mL
Nc1nc2c(ncn2[C@H]2C[C@@]23C[C@H]3CO)c(=O)[nH]1 | HFF | - | >399 µM
CC#Cc1cn([C@@H]2O[C@H](COP(=O)(NCCC)Oc3ccccc3)[C@@H](O)[C@@H]2O)c(=O)[nH]c1=O | MRC-5 | G-31 | >100 µM
Cc1cccc2c1OP(=O)(OC[C@H]1O[C@@H](n3cc(/C=C/Br)c(=O)[nH]c3=O)C[C@@H]1OC(=O)[C@H](N)CC(C)C)OC2 | HELF | OKA | 0.01 µg/mL
CC#Cc1cn([C@@H]2O[C@H](CO)[C@@H](O)[C@@H]2O)c(=O)[nH]c1=O | HEL | - | 1.63 µM
Nc1ncnc2c1ncn2CC/C=C\P(=O)(O)O | MRC-5 | ELLEN | >300 µM
Nc1ncc2c(ncn2COC(CO)CO)n1 | HEL | OKA (TK+) | 0.046 µM
Nc1ncnc2c1ncn2CC/C=C/P(=O)(O)O | MRC-5 | ELLEN | >300 µM
Nc1nc2c(ncn2COCCO)c(=O)[nH]1 | HFF | - | 3.5 µM
CCc1cn([C@H]2C[C@H](O)[C@@H](CO)O2)c(=O)[nH]c1=O | HEL | OKA YS | 43 µM
O=c1[nH]c(=O)n([C@@H]2O[C@H](CO)[C@@H](O)[C@@H]2F)cc1/C=C/Br | HEL | - | 0.023 µM
Cc1cn([C@H]2C[C@H](O)[C@@H](CO)O2)c(=O)[nH]c1=O | MRC-5 | HOSEN | >413 µM
Nc1ccn(C[C@H]2COP(=O)(O)CO2)c(=O)n1 | HEL | 07/1 (TK-) | 1.24 µM
Cc1cccc2c1OP(=O)(OC[C@H]1O[C@@H](n3cc(/C=C/Br)c(=O)[nH]c3=O)C[C@@H]1OC(=O)[C@H](C)N)OC2 | HELF | OKA | 0.039 µg/mL
Nc1nccc2c1ncn2C[C@@H](CO)OCP(=O)(O)O | HEL | YS/R (TK-) | 0.06 µM
Nc1nc(N)c2ncn(CC/C=C/P(=O)(O)O)c2n1 | MRC-5 | ELLEN | >300 µM
Nc1nc(=S)n([C@H]2C[C@H](O)[C@@H](CO)O2)cc1I | MRC-5 | HOSEN | 95.1 µM
O=c1[nH]c(=O)n([C@H]2C[C@H](O)[C@@H](CO)O2)cc1C1CCCCC1 | HEL | OKA YS | >160 µM
C=C(/C=C/P(=O)(O)O)Cn1cnc2c(=O)[nH]c(N)nc21 | MRC-5 | ELLEN | >300 µM
O=c1[nH]c(=O)n([C@@H]2O[C@H](CO)[C@@H](O)[C@@H]2O)cc1/C=C/I | HEL | - | 0.0035 µM
CCCc1cn([C@H]2C[C@H](O)[C@@H](CO)S2)c(=O)[nH]c1=O | HEL | OKA YS | 1.8 µM
CC#Cc1cn([C@@H]2O[C@H](COP(=O)(O)Oc3ccc(Cl)cc3)[C@@H](O)[C@@H]2O)c(=O)[nH]c1=O | MRC-5 | G-31 | 100 µM
CCc1cn([C@H]2C[C@H](O)[C@@H](CO)S2)c(=O)[nH]c1=O | HEL | OKA YS | 0.087 µM
O=c1[nH]c(=O)n([C@@H]2O[C@H](CO)[C@@H](O)[C@@H]2O)cc1/C=C/Cl | HEL | - | 0.0056 µM
O=C(O)CP(=O)(O)O | HEL | PFA-resistant/B | 32.4 µg/mL
Nc1ncnc2c1ncn2C[C@@H](CO)OCP(=O)(O)O | HEL | YS | 0.54 µM
Nc1nc2c(ncn2CC/C=C\P(=O)(O)O)c(=O)[nH]1 | MRC-5 | ELLEN | >300 µM
CCCCCCCCc1cc2cn([C@H]3C[C@H](O)[C@@H](CO)S3)c(=O)nc2o1 | HEL | Strains YS and Oka | 0.016 µM
Nc1nc2c(ncn2[C@@H]2O[C@H](CO)[C@H]2CO)c(=O)[nH]1 | HEL | 13 isolates | 0.24 µM

A second listing of 3 rows from above:

compound | cells | strain | value
Nc1ncnc2c1ncn2[C@@H]1O[C@H](CO)[C@@H](O)[C@@H]1O | HEL | YS/R (TK-) | 14.2 µM
Nc1nc2c(ncn2[C@@H]2O[C@H](CO)[C@H]2CO)c(=O)[nH]1 | HEL | 13 isolates | 0.24 µM
Nc1ccn(C[C@H]2COP(=O)(O)CO2)c(=O)n1 | HEL | 07/1 (TK-) | 1.24 µM

An empty or dashed field is not shown. Lines come from different laboratories, so protocols vary.